Assay results: PMC6127852 (Journal of Enzyme Inhibition and Medicinal Chemistry, 2018)

Tests used:
polyC-polyG = experiment: UV–Vis titration with polyC-polyG (Scatchard); assay type: binding; conditions: for n, polyC-polyG (n = fix): footnote d: n = fix; for n, polyC-polyG: Scatchard
Description: (§1) Polynucleotides were purchased as follows: polyG–polyC, polyA–polyU (Sigma-Aldrich, St. Louis, MO), calf thymus ctDNA (Aldrich). Polynucleotides were dissolved in PBS buffer, I = 0.05 mol dm^−3, pH 7.0. The calf thymus ctDNA was additionally sonicated and filtered through a […] filter. The polynucleotide concentration was spectroscopically determined as the concentration of nucleobases.
(§2) All UV–Vis absorbance measurements were conducted on a Perkin Elmer Lambda 25 spectrophotometer (Perkin Elmer, Waltham, MA). A quartz cell with a 1 cm path length was used for all absorbance studies. Compound stock solutions were 1 mM. The DNA/RNA at increasing ratios was then titrated into the compound buffer solution (1.48 × 10^−5 mol dm^−3) and the corresponding absorption spectra were recorded under the same conditions. All data were graphed and analysed using Origin software version 9.0 (OriginLab Corporation, Northampton, MA). The stability constants (Ks) and [bound compound]/[polynucleotide phosphate] ratios (n) were calculated according to the Scatchard Equation[63] ^, [64]. Values for Ks and n given in Table 1 all have satisfying correlation coefficients (0.99).
(§3) The binding constants logKs and the density of the binding sites n were calculated using Scatchard plot analysis. In addition, the binding constants Ks for compounds 8b and 8e were calculated only for titration data taken at the r ≥ 0.1, because below that ratio changes in absorption maxima were too small for accurate calculation (ΔA ≤ 0.04) (Table 1). The binding constants Ks and ratios n obtained by processing UV–Vis titration data using the Scatchard equation are summarised in Table 1.

ctDNA = experiment: Thermal melting (ΔTm) of ctDNA; assay type: binding, calf; conditions: from non-linear dependence of ΔTm on r; polynucleotide not given
Description: T m experiments were conducted with a Perkin Elmer Lambda 25 spectrophotometer in 1 cm quartz cuvettes. The absorbance of the DNA/RNA-compound complex was monitored at 260 nm as a function of temperature. The absorbance of the ligands was subtracted from every curve, and the absorbance scale was normalised. The ΔT m values were calculated by subtracting T m of the free nucleic acid from T m of the complex. Every reported ΔT m value was the average of at least two measurements. The error of ΔT m is ±0.5 °C. All data were graphed and analysed using Origin software version 9.0.
Denaturation experiments were carried out at different amounts of the compounds (r = 0.1, 0.3, 0.5, and 0.7 eq; r = [compound]/[polynucleotide]) with ctDNA and polyA-polyU.

polyA-polyU = experiment: UV–Vis titration with polyA-polyU (Scatchard); assay type: binding; conditions: for n, polyA-polyU: Scatchard, column head empty; for n, polyA-polyU (n = fix): footnote d: n = fix
Description: as §1, §2, §3

calf thymus ctDNA = experiment: UV–Vis titration with ctDNA (Scatchard); assay type: binding; conditions: for n ([compound]/[polynucleotide phosphate]), ctDNA: Scatchard, accuracy of n ± 10–30%; for n, ctDNA (range r ≥ 0.1): footnote f: mixed binding mode, calculated in range r ≥ 0.1
Description: as §1, §2, §3

| SMILES | n, polyC-polyG (n = fix) (polyC-polyG) | saturation of binding sites at ratio r (ctDNA) | n, polyA-polyU (polyA-polyU) | n ([compound]/[polynucleotide phosphate]), ctDNA (calf thymus ctDNA) | n, polyC-polyG (polyC-polyG) | n, ctDNA (range r ≥ 0.1) (calf thymus ctDNA) | n, polyA-polyU (n = fix) (polyA-polyU) |
| --- | --- | --- | --- | --- | --- | --- | --- |
| N=C(N)c1ccc2[nH]c(-c3ccc(OCc4cn(-c5ccccc5)nn4)cc3)nc2c1 [Compound 7a] | 0.40 ^d | 0.3–0.5 | 0.31 | 0.27 | – | – | – |
| COc1ccc(-n2cc(COc3ccc(-c4nc5cc(C(=N)N)ccc5[nH]4)cc3)nn2)cc1.Cl.Cl [Compound 7b, 2–(4-((1–(4-Methoxyphenyl)-1H-1,2,3-triazol-4-yl)methoxy)phenyl)-1H-benz[d]imidazole-5-carboximidamide dihydrochloride] | – | – | – | – | 0.73 | – | – |
| Cl.Cl.N=C(N)c1ccc2[nH]c(-c3ccc(OCc4cn(-c5ccccc5Cl)nn4)cc3)nc2c1 [Compound 7c, 2–(4-((1–(2-Chlorophenyl)-1H-1,2,3-triazol-4-yl)methoxy)phenyl)-1H-benz[d]imidazole-5-carboximidamide dihydrochloride] | – | – | 0.18 | 0.58 | – | – | – |
| N=C(N)c1ccc2[nH]c(-c3ccc(OCc4cn(Cc5ccccc5)nn4)cc3)nc2c1 [Compound 7d] | – | – | 0.11 | 0.59 | 0.36 | – | – |
| Cl.Cl.N=C(N)c1ccc2[nH]c(-c3ccc(OCc4cn(CSc5ccccc5)nn4)cc3)nc2c1 [Compound 7e, 2–(4-((1-((Phenylthio)methyl)-1H-1,2,3-triazol-4-yl)methoxy)phenyl)-1H-benz[d]imidazole-5-carboximidamide dihydrochloride] | – | – | 0.29 | 0.61 | 0.69 | – | – |
| CC(C)NC(=N)c1ccc2[nH]c(-c3ccc(OCc4cn(-c5ccccc5)nn4)cc3)nc2c1 [Compound 8a] | 0.4 ^d | – | 0.24 | 0.64 | – | – | – |
| COc1ccc(-n2cc(COc3ccc(-c4nc5cc(C(=N)NC(C)C)ccc5[nH]4)cc3)nn2)cc1.Cl.Cl [Compound 8b, N-isopropyl-2–(4-((1–(4-methoxyphenyl)-1H-1,2,3-triazol-4-yl)methoxy)phenyl)-1H-benz[d]imidazole-5-carboximidamide dihydrochloride] | – | – | 0.23 | – | 0.39 | 0.62 ^f | – |
| CC(C)NC(=N)c1ccc2[nH]c(-c3ccc(OCc4cn(-c5ccccc5Cl)nn4)cc3)nc2c1.Cl.Cl [Compound 8c, N-isopropyl-2–(4-((1–(2-chlorophenyl)-1H-1,2,3-triazol-4-yl)methoxy)phenyl)-1H-benz[d]imidazole-5-carboximidamide dihydrochloride] | – | – | 0.19 | 0.69 | 0.36 | – | – |
| CC(C)NC(=N)c1ccc2[nH]c(-c3ccc(OCc4cn(Cc5ccccc5)nn4)cc3)nc2c1 [Compound 8d] | 0.40 ^d | – | 0.30 | 0.47 | – | – | – |
| CC(C)NC(=N)c1ccc2[nH]c(-c3ccc(OCc4cn(CSc5ccccc5)nn4)cc3)nc2c1.Cl.Cl [Compound 8e, N-isopropyl-2–(4-((1-(phenylthiomethyl)-1H-1,2,3-triazol-4-yl)methoxy)phenyl)-1H-benz[d]imidazole-5-carboximidamide dihydrochloride] | – | – | 0.30 | – | 0.28 | 0.36 ^f | – |
| c1ccc(-n2cc(COc3ccc(-c4nc5cc(C6=NCCN6)ccc5[nH]4)cc3)nn2)cc1 [Compound 9a] | 0.40 ^d | – | – | – | – | – | – |
| COc1ccc(-n2cc(COc3ccc(-c4nc5cc(C6=NCCN6)ccc5[nH]4)cc3)nn2)cc1.Cl.Cl [Compound 9b, 5–(4,5-Dihydro-1H-imidazol-2-yl)-2–(4-((1–(4-methoxyphenyl)-1H-1,2,3-triazol-4-yl)methoxy)phenyl)-1H-benz[d]imidazole dihydrochloride] | – | – | – | – | – | – | 0.30 ^d |
| Cl.Cl.Clc1ccccc1-n1cc(COc2ccc(-c3nc4cc(C5=NCCN5)ccc4[nH]3)cc2)nn1 [Compound 9c, 5–(4,5-Dihydro-1H-imidazol-2-yl)-2–(4-((1–(2-chlorophenyl)-1H-1,2,3-triazol-4-yl)methoxy)phenyl)-1H-benz[d]imidazole dihydrochloride] | – | – | 0.29 | 0.35 | 0.36 | – | – |
| c1ccc(Cn2cc(COc3ccc(-c4nc5cc(C6=NCCN6)ccc5[nH]4)cc3)nn2)cc1 [Compound 9d] | – | 0.5–0.7 | – | 0.75 | 0.41 | – | 0.30 ^d |
| Cl.Cl.c1ccc(SCn2cc(COc3ccc(-c4nc5cc(C6=NCCN6)ccc5[nH]4)cc3)nn2)cc1 [Compound 9e, 5–(4,5-Dihydro-1H-imidazol-2-yl)-2–(4-((1-(phenylthiomethyl)-1H-1,2,3-triazol-4-yl)methoxy)phenyl)-1H-benz[d]imidazole dihydrochloride] | 0.4 ^d | – | 0.26 | 0.12 | – | – | – |
